Test results as given in patent US7687482B2, “Bisphosphonate compounds and methods” (The Board of Trustees of the University of Illinois, priority 2006, dated 2010).

Sequences of proteins named here, by UniProt entry; tags and fusion partners are left off. Residues count along the entry.
UniProt Q57WF1, 1-367: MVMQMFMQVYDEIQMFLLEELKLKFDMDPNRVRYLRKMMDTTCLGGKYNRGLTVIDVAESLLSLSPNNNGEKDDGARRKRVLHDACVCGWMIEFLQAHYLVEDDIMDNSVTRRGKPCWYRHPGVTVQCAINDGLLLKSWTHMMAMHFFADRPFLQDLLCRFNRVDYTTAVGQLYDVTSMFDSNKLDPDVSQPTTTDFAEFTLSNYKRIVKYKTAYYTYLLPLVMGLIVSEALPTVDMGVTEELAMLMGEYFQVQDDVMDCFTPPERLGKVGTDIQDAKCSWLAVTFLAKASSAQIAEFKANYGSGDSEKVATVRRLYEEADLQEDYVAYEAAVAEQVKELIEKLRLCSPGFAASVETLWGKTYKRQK

target: T. brucei FPPS (Trypanosoma brucei, UniProt Q57WF1); settings: read-out: T. brucei FPPS IC50

`CCCC[S+](C)CC(O)(P(=O)([O-])O)P(=O)(O)O` (stereo not drawn) and `C[S+](C)CCC(O)(P(=O)([O-])O)P(=O)(O)O` (stereo not drawn) are within 1.5-fold of each other in IC50: 1100 nM for the first, 1400 nM for the second.

Going from `O=P([O-])(O)C(O)(C[S+]1CCCC1)P(=O)(O)O` (stereo not drawn) to `O=P([O-])(O)C(O)(C[S+]1CCCCC1)P(=O)(O)O` (stereo not drawn), the IC50 rises from 250 nM to 590 nM (2.4-fold).

Compared with `O=P([O-])(O)C(O)(CC[S+]1CCCC1)P(=O)(O)O` (stereo not drawn), `C[S+](CCCOc1ccccc1)CC(O)(P(=O)([O-])O)P(=O)(O)O` (stereo not drawn) is 3.2-fold lower in IC50: 780 nM for the first, 240 nM for the second.
